Anti-infective test results gathered from many reports (values: NIAID ChemDB through PubChem).

Common to all: tests in culture; species: Mycobacterium avium; measure: MIC

Conditions beyond the fields shown may differ between rows. An empty or dashed field is not shown.

structure	strain or isolate	method	conditions	result
CCS/C(N)=N/N=C/c1ccc2cc(Cl)ccc2n1	CNCTC MY80/72	-	-	32 µM
Fc1ccc(C(Cn2ccnc2)NC/C=C/c2ccccc2)cc1	103317	-	-	24.9 µM
Fc1ccc(/C(Cn2ccnc2)=N\OCc2cccc3ccccc23)cc1	CIP103317	-	-	>16 µg/mL
CCCCOc1cccc(NC(=O)OC(C)CN2CCCCC2)c1	MY330/88	-	-	62.5 µM
CCCCOc1cccc(NC(=O)OCCN(C)C)c1	MY330/88	-	-	125 µM
Cc1nc2scc(-c3ccco3)c2c(=O)n1NC(=O)C1CCCCC1	CNCTC MY330/88	-	-	88 µM
CCCCc1ccc(NC(=S)Nc2ccc(SCCC)cc2)cc1	724	-	-	5 µg/mL
c1ccc(-c2ccc(CNc3ccc(N4CCOCC4)cc3)cc2)cc1	103317	-	-	8 µg/mL
C=CCS/C(N)=N/NC(=O)c1ccc(C)cc1	ATCC 19421	-	-	>100 µg/mL
Cc1ccc2oc(=O)n(-c3cccc(Cl)c3)c(=S)c2c1	MY330/88	-	14 d	4 µM
C=CCSc1ncnc2ccccc12	CNCTC MY66/72	-	-	250 µM
C=CCS/C(N)=N/NC(=O)c1ccc(Cl)cc1Cl	ATCC 19421	-	-	>100 µg/mL
NNC(=O)c1ccncc1	-	-	-	5 µg/mL
C(=C\c1ccccc1)/CO/N=C(/Cn1ccnc1)c1ccccc1	CIP103317	-	-	>16 µg/mL
CCCCCCCCCOc1cccc(NC(=O)OCCN(C)C)c1	MY330/88	-	-	8 µM
O=[N+]([O-])c1ccc(Sc2nc3c(Br)cc(Br)cc3[nH]2)cc1	MY330/88	-	-	16 µM
O=C(Oc1cc(Cl)ccc1C(=O)Nc1cccc(Br)c1)c1cnccn1	330/88	-	14 d	8 µM
CCCCCCCS/C(N)=N/N=C/c1ccc2ccccc2n1	CNCTC D5/93	-	-	32 µM
FC(F)(F)C(F)(F)c1nc2c(Cl)cc(Cl)cc2[nH]1	MY330/88	-	-	62.5 µM
Clc1ccc(CNc2ccccc2-n2ccnc2)cc1	103317	-	-	>16 µg/mL
O=C(Oc1cc(Cl)ccc1C(=O)Nc1cccc(F)c1)c1cnccn1	330/88	-	14 d	8 µM
O=C(Nc1ccc(N2CCSCC2)cc1)c1ccc(-c2ccccc2)cc1	103317	-	-	>16 µg/mL
Clc1ccc(/C(Cn2ccnc2)=N\OCc2ccc(-c3ccccc3)cc2)c(Cl)c1	CIP103317	-	-	16 µg/mL
Nc1ccc(C(=O)O)c(O)c1	330/88	-	14 d	32 µM
CC(C)(C)n1cc(C(=O)O)c(=O)c2cc(F)c(N3CCNCC3)nc21	RG0	-	-	1 µg/mL
CCCCOc1ccc(NC(=S)Nc2ccc(OCCCC)cc2)cc1	724	-	-	>20 µg/mL
COc1cccc(CSc2ncn[nH]2)c1	MY330/88	-	-	1000 µM
CCCCOc1cccc(NC(=O)OCCN2CCCCC2)c1	MY330/88	-	-	62.5 µM
Cc1cccc(CSc2ncn[nH]2)c1	MY330/88	-	-	500 µM
Cc1ccc(/C=N/N=C(/N)c2ccccn2)c(C)c1	-	-	-	32 µg/mL
CCCCCCCCOC(=O)c1cnccn1	ATCC 25291	-	-	>200 µg/mL
Cc1c(F)c(N2CCNC(C)C2)cc2c1c(=O)c(C(=O)O)cn2C1CC1	36-1	-	-	0.5 µg/mL
CCSc1ncnc2ccccc12	CNCTC MY66/72	-	-	125 µM
OCNC(=S)c1cnccn1	ATCC 25291	-	-	50 µg/mL
CC(=O)Oc1ccccc1C(=O)Nc1cnccn1	-	resazurin	-	>100 µg/mL
Cc1c(C)c(C)[c-](C)c1C.N[C@H](C(=O)[O-])c1ccccc1.[Cl][Rh+2]	A5	-	-	>250 µg/mL
NC(=S)NNC(=O)c1ccc(F)cc1	ATCC 19421	-	-	>100 µg/mL
CCCCCOc1cccc(NC(=O)OC(C)CN2CCCCC2)c1	MY330/88	-	-	32 µM
COc1ccc(OC)c(/C=N/N=C(\N)c2ccccn2)c1	-	-	-	256 µg/mL
CCCCOc1ccc(NC(=O)OCCN2CCCCC2)cc1	MY330/88	-	-	125 µM
S=c1oc2ccc(Br)cc2c(=S)n1-c1ccc(Br)cc1	MY330/88	-	14 d	32 µM
C=CCS/C(N)=N/NC(=O)c1ccc(OC)cc1	ATCC 19421	-	-	>100 µg/mL
CCS/C(N)=N/N=C/c1nc2ccccc2n1C	CNCTC MY80/72	-	-	500 µM
Clc1ccc(CNc2cccc(N3CCOCC3)c2)cc1	103317	-	-	>16 µg/mL
O=C(Nc1ccc(N2CCSCC2)cc1)c1ccc(Cl)cc1	103317	-	-	92.3 µM
FC(F)(F)c1nc2cc(Cl)c(Cl)cc2[nH]1	MY330/88	-	-	32 µM
O=c1oc2ccc(Cl)cc2c(=S)n1-c1ccc(F)cc1	MY330/88	-	14 d	62.5 µM
CC(C)(C)c1ccc(COC(Cn2ccnc2)c2ccc(Cl)cc2Cl)cc1	103317	-	-	2.48 µM
CO[C@H]1/C=C/O[C@@]2(C)Oc3c(C)c(O)c4c(O)c(cc(O)c4c3C2=O)NC(=O)/C(C)=C\C=C\[C@H](C)[C@H](O)[C@@H](C)[C@@H](O)[C@@H](C)[C@H](OC(C)=O)[C@@H]1C	Boreggi	-	-	5 µg/mL
Cc1ccc(C)c(/C=N/N=C(\N)c2ccccn2)c1	-	-	-	256 µg/mL
CCCCOc1ccccc1NC(=O)OCCN1CCOCC1	MY330/88	-	-	250 µM
COc1ccc(C(=O)Nn2c(C)nc3scc(-c4ccco4)c3c2=O)cc1	CNCTC MY330/88	-	-	20 µM
Clc1ccc(/C(Cn2ccnc2)=N/OCc2ccc(-c3ccccc3)cc2)c(Cl)c1	CIP103317	-	-	>16 µg/mL
CCCCCCCOc1cccc(NC(=O)OC(COCC)CN2CCCCC2)c1	MY330/88	-	-	8 µM
c1ccc(CO/N=C(/Cn2ccnc2)c2ccccc2)cc1	103317	-	-	1.72 µM
CS/C(N)=N/NC(=O)c1ccc(C)cc1	ATCC 19421	-	-	>100 µg/mL
Fc1ccc(/C(Cn2ccnc2)=N/OCc2cccc3ccccc23)cc1	CIP103317	-	-	8 µg/mL
Cc1ccc(-n2c(=S)oc3ccc(Br)cc3c2=S)cc1	MY330/88	-	21 d	32 µM
Clc1ccc(/C(Cn2ccnc2)=N/OCc2ccc(-c3ccccc3)cc2)cc1	103317	-	-	19.9 µM
CCCCOc1cccc(NC(=O)OCCN2CCCCC2)c1	MY330/88	-	-	125 µM
Clc1ccc(C(Cn2ccnc2)OCc2cccc3ccccc23)c(Cl)c1	103317	-	-	2.52 µM
c1ccc(CO/N=C(\Cn2ccnc2)c2ccccc2)cc1	CIP103317	-	-	8 µg/mL
CC(C)CSc1ncnc2ccccc12	CNCTC MY66/72	-	-	63 µM
CCCSc1ccc(NC(=S)Nc2ccc(SCCC)cc2)cc1	724	-	-	>20 µg/mL
CCCSc1ncnc2ccccc12	CNCTC MY66/72	-	-	63 µM
CCS/C(N)=N/N=C/c1nc2ccccc2o1	CNCTC MY66/72	-	-	63 µM
CCCCCCCOc1cccc(NC(=O)OCCN2CCCCC2)c1	MY330/88	-	-	16 µM
CS/C(N)=N/NC(=O)c1ccc(F)cc1	ATCC 19421	-	-	>100 µg/mL
CCCC(C)S/C(N)=N/N=C/c1ccc2ccccc2n1	CNCTC MY66/72	-	-	16 µM
S=c1oc2ccc(Br)cc2c(=S)n1-c1ccccc1	MY330/88	-	14 d	8 µM
Fc1cccc(Cl)c1CSc1ncn[nH]1	MY330/88	-	-	500 µM
Clc1ccc(C(Cn2ccnc2)NCc2ccc(-c3ccccc3)cc2)cc1	103317	-	-	5.16 µM
CCCCCCOc1cccc(NC(=O)OC(COCC)CN2CCCCC2)c1	MY330/88	-	-	125 µM
CCS/C(N)=N/N=C/c1ccc2ccccc2n1	CNCTC MY80/72	-	-	>1000 µM
Fc1ccc(/C(Cn2ccnc2)=N/OC/C=C/c2ccccc2)cc1	CIP103317	-	-	>16 µg/mL
Cc1ccc(/C=N/n2c(C)nc3scc(-c4ccco4)c3c2=O)cc1	CNCTC MY330/88	-	-	57 µM
O=[N+]([O-])c1cc(Sc2nc3ccc(Cl)cc3[nH]2)cc([N+](=O)[O-])c1	MY330/88	-	-	32 µM
S=c1oc2ccc(Br)cc2c(=S)n1-c1ccc(Cl)cc1	MY330/88	-	21 d	32 µM
Clc1ccc(/C(Cn2ccnc2)=N/OC/C=C/c2ccccc2)c(Cl)c1	CIP103317	-	-	>16 µg/mL
Clc1ccc(CNc2cccc(N3CCSCC3)c2)cc1	103317	-	-	>16 µg/mL
COc1cccc(/C=N/N=C(\N)c2ccccn2)c1OC	-	-	-	256 µg/mL
CC(C)(C)c1ccc(NC(=S)Nc2ccc(C(C)(C)C)cc2)cc1	724	-	-	>20 µg/mL
CCOc1c(N2CCC(C(C)(C)N)C2)c(F)cc2c(=O)c(C(=O)O)cn(C3CC3)c12	RG0	-	-	1 µg/mL
CCc1cc(C(N)=S)ccn1	1854-4	-	-	0.63 µg/mL
O=C(Oc1cc(Cl)ccc1C(=O)Nc1ccc(Cl)cc1)c1cnccn1	330/88	-	21 d	2 µM
N/C(=N\N=C\c1ccc([N+](=O)[O-])cc1)c1ccccn1	-	-	-	256 µg/mL
C/C=N/n1c(C)nc2scc(-c3ccco3)c2c1=O	CNCTC MY330/88	-	-	58 µM

A second listing of 9 rows from above:

structure	strain or isolate	method	conditions	result
CCCCc1ccc(NC(=S)Nc2ccc(SCCC)cc2)cc1	724	-	-	5 µg/mL
Clc1ccc(CNc2ccccc2-n2ccnc2)cc1	103317	-	-	>16 µg/mL
CCS/C(N)=N/N=C/c1nc2ccccc2n1C	CNCTC MY80/72	-	-	500 µM
Cc1ccc(-n2c(=S)oc3ccc(Br)cc3c2=S)cc1	MY330/88	-	21 d	32 µM
Fc1ccc(/C(Cn2ccnc2)=N/OCc2cccc3ccccc23)cc1	CIP103317	-	-	8 µg/mL
CCCCCCCOc1cccc(NC(=O)OC(COCC)CN2CCCCC2)c1	MY330/88	-	-	8 µM
CCCCCCCS/C(N)=N/N=C/c1ccc2ccccc2n1	CNCTC D5/93	-	-	32 µM
Clc1ccc(/C(Cn2ccnc2)=N\OCc2ccc(-c3ccccc3)cc2)c(Cl)c1	CIP103317	-	-	16 µg/mL
OCNC(=S)c1cnccn1	ATCC 25291	-	-	50 µg/mL